A mixed list of measured activities; the numbers were collected in NIAID ChemDB.

Common to all: whole-cell or culture tests; species: HIV-1; cell line: CEM; read-out: inhibition

Rows are shuffled and stem from different studies. Percent inhibition refers to the dose given; in toxicity tests it is the harm to the cells. An empty or dashed field is not shown.

Cc1cn([C@H]2C[C@H](N=[N+]=[N-])[C@@H](COP(=O)(O)OC[C@H]3OC(O)[C@@H](O)[C@@H](O)[C@@H]3O)O2)c(=O)[nH]c1=O ; strain or isolate: LAV-Bru ; method: RT activity ; conditions: 15 d ; tested at: 5 µM ; value: 93%
CCCCC[C@H](O)/C=C/[C@H]1C=CC(=O)[C@@H]1CCCCCCC(=O)O ; strain or isolate: IIIB ; method: MTT / syncytia ; tested at: 30 µM ; value: 77%
OCC(S)CS ; strain or isolate: IIIB-C-3 ; method: RT activity ; tested at: 5 µg/mL ; value: 92%
O=C(O)c1cc(C(O)(c2ccc(O)c(C(=O)O)c2)c2ccc(O)c(C(=O)O)c2)ccc1O ; strain or isolate: RF ; method: cytopathic effect ; tested at: 167 µg/mL ; value: 89%
Cc1cc(SC2=C(O)C[C@@](CCc3ccc(N)cc3)(C(C)C)OC2=O)c(C(C)(C)C)cc1CO ; strain or isolate: IIIB ; method: cytopathic effect / MTT ; tested at: 1 µM ; value: 90%
Cc1cn([C@H]2C[C@H](N=[N+]=[N-])[C@@H](CO)O2)c(=O)[nH]c1=O ; strain or isolate: LAV-Bru ; method: RT activity ; conditions: 7 d ; tested at: 25 µM ; value: 97%
COc1ccc(S(=O)(=O)N(CC(C)C)C[C@@H](O)[C@H](Cc2ccccc2)NC(=O)c2cccc(O)c2C)cc1 ; strain or isolate: IIIB ; tested at: 0.059 µM ; value: 95%
COC(=O)[C@H](C)NP(=O)(OC[C@@H]1O[C@H](n2ccc(N)nc2=O)CS1)Oc1ccccc1 ; strain or isolate: IIIB ; method: cytopathic effect ; conditions: 18 d ; tested at: 10 µM ; value: 50%
Cc1cn([C@H]2C[C@H](OC=O)[C@@H](CO)O2)c(=O)[nH]c1=O ; method: cytopathic effect ; tested at: 20 µM ; value: 30%
N[C@@H](CS)C(=O)O ; strain or isolate: IIIB ; method: cytopathic effect / MTT ; tested at: 100 µM ; value: 47%
Nc1nc(Cl)nc2c1ncn2[C@H]1CC[C@@H](CO)O1 ; strain or isolate: LAV ; method: p24 ; tested at: 10 µM ; value: 85%
Nc1ccn([C@H]2CC[C@@H](CO)O2)c(=O)n1 ; strain or isolate: LAV-1 ; method: virus yield ; tested at: 0.001 µM ; value: 99%
OCCS ; strain or isolate: IIIB ; method: cytopathic effect / MTT ; tested at: 100 µM ; value: 0%
Cc1ccnc2c1NC(=O)c1cccnc1N2C1CC1 ; strain or isolate: BRU ; method: p24 ; tested at: 0.1 µM ; value: 85%
NCCS ; strain or isolate: IIIB ; method: cytopathic effect / MTT ; tested at: 100 µM ; value: 100%
CC(C)(C)NC(=O)[C@@H]1CCCN1C(=O)[C@@H](O)[C@H](Cc1ccccc1)NC(=O)[C@H](CC(N)=O)NC(=O)c1cnc2ccccc2n1 ; strain or isolate: IIIB ; method: p24 ; tested at: 0.5 µM ; value: 79%
CCN(CCO)CCCC(C)Nc1ccnc2cc(Cl)ccc12 ; strain or isolate: IIIB ; method: RT activity ; tested at: 10 µg/mL ; value: 20%
Cc1cc(SC2=C(O)C[C@@](CCc3ccc(O)cc3)(C(C)C)OC2=O)c(C(C)(C)C)cc1CO ; strain or isolate: IIIB ; method: cytopathic effect / MTT ; tested at: 1 µM ; value: 90%
Cc1cn([C@H]2C[C@H](N=[N+]=[N-])[C@@H](COP(=O)(O)OC[C@H]3OC(O)[C@H](O)[C@@H](O)[C@@H]3O)O2)c(=O)[nH]c1=O ; strain or isolate: LAV-Bru ; method: RT activity ; conditions: 15 d ; tested at: 25 µM ; value: 98%
[B-]P(=O)([O-])CC[C@H]1O[C@@H](n2cc(C)c(=O)[nH]c2=O)C[C@@H]1N=[N+]=[N-] ; strain or isolate: IIIB ; method: syncytia ; tested at: 400 µM ; value: 0%
Cc1cn([C@H]2C[C@H](N=[N+]=[N-])[C@@H](CO)O2)c(=O)[nH]c1=O ; strain or isolate: I-232 ; method: antigen ; tested at: 1 µM ; value: 95%

Repeating the first 2 entries:

smiles | strain or isolate | method | conditions | tested at | value
Cc1cn([C@H]2C[C@H](N=[N+]=[N-])[C@@H](COP(=O)(O)OC[C@H]3OC(O)[C@@H](O)[C@@H](O)[C@@H]3O)O2)c(=O)[nH]c1=O | LAV-Bru | RT activity | 15 d | 5 µM | 93%
CCCCC[C@H](O)/C=C/[C@H]1C=CC(=O)[C@@H]1CCCCCCC(=O)O | IIIB | MTT / syncytia |  | 30 µM | 77%